Pooled drug test results. Numbers come from NIAID ChemDB, via PubChem.

Shared fields: growth or infection tests; agent: HIV-1; endpoint: EC50

Rows are shuffled and stem from different studies. Blank or dashed fields: not listed here. ECn: concentration that inhibits the pathogen or its effect by n%.

smiles,strain,read by,cells,changes,value
Nc1c(-c2ccccn2)n(COCCO)c2ccccc12,-,-,MT-4,-,>50 µM
COc1c(O)c(Cl)c2c(c1OC)-c1c(c(Cl)c(O)c(OC)c1OC)C[C@H](C)[C@H](C)C2,A17,cytopathic effect / MTT,MT-4,RT-K103N Y181C,>20 µM
CCCCOn1c(CCC)nc2c(C)cccc21,IIIB,RT activity,C8166,-,0.5 µM
N#Cc1cn(COCCO)c2ccccc12,-,-,MT-4,-,>200 µM
CC1=C(C(=O)Nc2ccc(Cl)c(C(=O)OC(C)C)c2)SCCO1,IIIB,cytopathic effect / XTT,CEM + CEM-SS,-,0.25 µM
Cc1cn([C@H]2C[C@H](C#N)[C@@H](CO)O2)c(=O)[nH]c1=O,CBL-1,cytopathic effect,C8166,-,>100 µg/mL
Nc1ccn([C@H]2CC[C@@H](CO)O2)c(=O)n1,IIIB,-,MT-4,-,0.35 µM
O=Cc1cn(COCCO)c2ccccc12,-,-,MT-4,-,>200 µM
CC(C)=CCOn1c(C=C(C)C)nc2ccc(C)cc21,IIIB,RT activity,C8166,-,10 µM
Cc1cn([C@H]2C[C@H](N=[N+]=[N-])[C@@H](CO)O2)c(=O)[nH]c1=O,RF,cytopathic effect / XTT,MT-2,-,3.95 µM
O=C(N[C@H]1c2ccccc2OC[C@H]1O)[C@H](Cc1cccnc1)C[C@H](O)CN1CCN(Cc2ccn(-c3ccccc3)c2)C[C@H]1C(=O)NCC(F)(F)F,NL4-3 WT,p24,MT-4,-,<0.015 µM
Nc1ccn([C@@H]2CO[C@H](CO)S2)c(=O)n1,RF,cytopathic effect / MTT,MT-4,-,28 µM
Cc1cc(S(N)(=O)=O)ccc1NC(=O)COc1ccc(Cl)cc1C(=O)c1cc(Cl)cc(C#N)c1,NNRTI-resistant (RT K103N V108I),β-galactosidase,MAGI,RT-K103N V108I,0.00063 µM
O=C(N[C@H]1c2ccccc2OC[C@H]1O)[C@H](Cc1cccnc1)C[C@H](O)CN1CCN(Cc2ccn(-c3cc(Cl)c(Cl)c(Cl)c3)c2)C[C@H]1C(=O)NCC(F)(F)F,K-60C Clinical isolate,p24,MT-4,PR-L10I M46I I54V Q58E L63P I64V V77I V82F I84V L90M I93L,<0.031 µM
O=C(/C=C/c1ccc(O)c2c1[C@H](C(=O)O)[C@H](c1ccc(O)c(O)c1)O2)O[C@H](Cc1ccc(O)c(O)c1)C(=O)O,IIIB,p24 / antigen,MT-4,-,6.11 µg/mL
O=c1[nH]cnc2c1ncn2[C@H]1CC[C@@H](CO)O1,HXB2,p24,C8166,-,1.8 µM
Cc1cn([C@H]2C[C@H](N=[N+]=[N-])[C@@H](CO)O2)c(=O)[nH]c1=O,IIIB,antigen,HuT-78 + HUT 78,-,0.031 µM
Cc1ccnc2c1NC(=O)c1cccnc1N2C1CC1,TIBO-resistant L100I (RT-L100I),cytopathic effect / MTT,MT-4,RT-L100I,0.71 µM
C=CCSS/C=C/CS(=O)CC=C,-,-,H9,-,25 µM
O=C(O)c1ccc2ccc(/C=C/c3ccc([N+](=O)[O-])cc3)nc2c1O,-,ELISA,CEM,-,>43 µM
CCCCCOn1c(CCCC)nc2c(C)cccc21,IIIB,RT activity,C8166,-,8 µM
O=c1[nH]c(=O)n([C@H]2C[C@H](F)[C@@H](CO)O2)cc1Cl,IIIB,antigen,HuT-78 + HUT 78,-,1.4 µM
CNc1ccc(Cl)cc1S(=O)(=O)c1ccccc1[N+](=O)[O-],MN,XTT,CEM + CEM-SS,-,0.5 µM
CC(=O)OCCOCn1cc(C(C)=O)c2ccccc21,-,-,MT-4,-,>200 µM
O=C(O)c1ccc2ccc(/C=C/c3ccsc3)nc2c1O,-,ELISA,CEM,-,>85 µM
CC(C)=CCN1Cc2cc(Cl)cc3[nH]c(=S)n(c23)C[C@@H]1C,IIIB,RT activity,C8166,-,0.002 µM
O=c1ccn([C@H]2C[C@H](F)[C@@H](CO)O2)c(=O)[nH]1,IIIB,cytopathic effect,MT-4,-,0.06 µM
Cc1cn([C@H]2C[C@H](N=[N+]=[N-])[C@@H](CO)O2)c(=O)[nH]c1=O,IIIB,p24 / antigen,MT-4,-,0.000083 µg/mL
CC(C)=CCOn1c(C=C(C)C)nc2c(C)cccc21,IIIB,RT activity,C8166,-,10 µM
O=C(N[C@H]1c2ccccc2OC[C@H]1O)[C@H](Cc1cccnc1)C[C@H](O)CN1CCN(Cc2ccn(-c3ccc(F)cc3)c2)C[C@H]1C(=O)NCC(F)(F)F,NL4-3 WT,p24,MT-4,-,<0.015 µM
CCOC(=O)[C@@H](Cc1ccc(O)c(O)c1)OC(=O)/C=C/c1ccc(O)c(O)c1/C=C/c1ccc(O)c(O)c1,IIIB,p24 / antigen,MT-4,-,1.44 µg/mL
CC(=O)Oc1ccc(/C=C/C(=O)O[C@@H](C(=O)O)[C@@H](OC(=O)/C=C/c2ccc(OC(C)=O)c(OC(C)=O)c2)C(=O)O)cc1OC(C)=O,NL4-3,cytopathic effect / MTT,MT-4,DS-resistant,>74 µM
COc1cc(/C=C/c2ccc3ccc(C(=O)O)c(O)c3n2)cc(O)c1O,NL4-3,β-galactosidase,HeLa P4 + HeLa,-,1 µM
Cc1ccnc2c1NC(=O)c1cccnc1N2C1CC1,Ba-L-85,p24,Macrophage,-,0.044 µM
Cc1c(N)nc([C@H](CC(N)=O)NC[C@H](N)C(N)=O)nc1C(=O)N[C@H](C(=O)N[C@H](C)[C@@H](O)[C@H](C)C(=O)N[C@H](C(=O)NCCc1nc(-c2nc(C(=O)NCCC[S+](C)C)cs2)cs1)[C@@H](C)O)C(O[C@@H]1O[C@@H](CO)[C@@H](O)[C@H](O)[C@@H]1O[C@H]1O[C@H](CO)[C@@H](O)[C@H](OC(N)=O)[C@@H]1O)c1cnc[nH]1,BaL,p24,PBMC,-,>0.7 µM
Nc1ncnc2c1ncn2CCOCP(=O)(O)O,-,p24,CEM,-,3 µg/mL

A second listing of 5 rows from above:

smiles | strain | read by | cells | changes | value
Nc1ncnc2c1ncn2CCOCP(=O)(O)O | - | p24 | CEM | - | 3 µg/mL
CC(=O)Oc1ccc(/C=C/C(=O)O[C@@H](C(=O)O)[C@@H](OC(=O)/C=C/c2ccc(OC(C)=O)c(OC(C)=O)c2)C(=O)O)cc1OC(C)=O | NL4-3 | cytopathic effect / MTT | MT-4 | DS-resistant | >74 µM
COc1c(O)c(Cl)c2c(c1OC)-c1c(c(Cl)c(O)c(OC)c1OC)C[C@H](C)[C@H](C)C2 | A17 | cytopathic effect / MTT | MT-4 | RT-K103N Y181C | >20 µM
CC1=C(C(=O)Nc2ccc(Cl)c(C(=O)OC(C)C)c2)SCCO1 | IIIB | cytopathic effect / XTT | CEM + CEM-SS | - | 0.25 µM
O=C(/C=C/c1ccc(O)c2c1[C@H](C(=O)O)[C@H](c1ccc(O)c(O)c1)O2)O[C@H](Cc1ccc(O)c(O)c1)C(=O)O | IIIB | p24 / antigen | MT-4 | - | 6.11 µg/mL